Laboratory results: patent US20220089698A1, “ANTIBODIES THAT TARGET HIV GP120 AND METHODS OF USE” (published 2022)
Changes are numbered by the printed parent chain.

B1: 2.2.1-1 (antibody, human IgG1, kappa)
heavy: QVHLSQSGAAVTKPGASVRVSCEASGYKIRDHFIHWWRQAPGQGLQWVGWINPKTGQPNNPRQFQGRVSLTRHASWDFDTFSFYMDLKAVRSDDTAIYFCARQRSDYWDFDVWGSGTQVTVSSASTKGPSVFPLAPSSKSTSGGTAALGCLVKDYFPEPVTVSWNSGALTSGVHTFPAVLQSSGLYSLSSVVTVPSSSLGTQTYICNVNHKPSNTKVDKKVEPKSCDKTHTCPPCPAPELLAGPDVFLFPPKPKDTLMISRTPEVTCVVVDVSHEDPEVKFNWYVDGVEVHNAKTKPREEQYNSTYRVVSVLTVLHQDWLNGKEYKCKVSNKALPLPEEKTISKAKGQPREPQVYTLPPSREEMTKNQVSLTCLVKGFYPSDIAVEWESNGQPENNYKTTPPVLDSDGSFFLYSKLTVDKSRWQQGNVFSCSVLHEALHSHYTQKSLSLSPGK
light: not shown
B2: Antibody A-2 (antibody)
heavy: B1 heavy with H3Q, S5L, K28N, H32Y, V90L, I97V, L434M, S440N
light: not shown
B3: 2.3.10-1 (antibody, human IgG1, kappa)
heavy: B1 heavy with K28N, H32Y
light: not shown
B4: 2.2.14-1 (antibody, human IgG1, kappa)
heavy: B1 heavy
light: not shown
B5: 2.3.1-1 (antibody, human IgG1, kappa)
heavy: B1 heavy with K28N, H32Y
light: not shown
B6: 2.2.8-1 (antibody, human IgG1, kappa)
heavy: B1 heavy
light: not shown
B7: 2.3.2-1 (antibody, human IgG1, kappa)
heavy: B1 heavy with K28N, H32Y
light: not shown
B8: 2.3.20-1 (antibody, human IgG1, kappa)
heavy: B1 heavy with K28N, H32Y
light: not shown
B9: 2.2.16-1 (antibody, human IgG1, kappa)
heavy: B1 heavy
light: not shown
B10: 2.3.14-1 (antibody, human IgG1, kappa)
heavy: B1 heavy with K28N, H32Y
light: not shown
B11: 2.2.5-1 (antibody, human IgG1, kappa)
heavy: B1 heavy
light: not shown
B12: 2.2.19-1 (antibody, human IgG1, kappa)
heavy: B1 heavy
light: not shown
B13: 2.3.5-1 (antibody, human IgG1, kappa)
heavy: B1 heavy with K28N, H32Y
light: not shown
B14: 2.3.8-1 (antibody, human IgG1, kappa)
heavy: B1 heavy with K28N, H32Y
light: not shown
B15: 2.3.11-1 (antibody, human IgG1, kappa)
heavy: B1 heavy with K28N, H32Y
light: not shown
B16: 2.2.20-1 (antibody, human IgG1, kappa)
heavy: B1 heavy
light: not shown
B17: 2.2.11-1 (antibody, human IgG1, kappa)
heavy: B1 heavy
light: not shown
B18: 2.2.2-1 (antibody, human IgG1, kappa)
heavy: B1 heavy
light: not shown
B19: 2.3.19-1 (antibody, human IgG1, kappa)
heavy: B1 heavy with K28N, H32Y
light: not shown
B20: 2.2.10-1 (antibody, human IgG1, kappa)
heavy: B1 heavy
light: not shown
B21: 2.3.16-1 (antibody, human IgG1, kappa)
heavy: B1 heavy with K28N, H32Y
light: not shown
B22: 2.2.9-1 (antibody, human IgG1, kappa, V domains shown)
VH: QVHLSQSGAAVTKPGASVRVSCEASGYKIRDHFIHWWRQAPGQGLQWVGWINPKTGQPNNPRQFQGRVSLTRHASWDFDTFSFYMDLKAVRSDDTAIYFCARQRSDYWDFDVWGSGTQVTVSS
VL: DIQMTQSPSSLSARVGDTATITCQANGYLNWYQQRRGKAPKLLIYDGSKLERGVPARFSGRRWGQEYNLTINNLQPEDVATYFCQVYEFFGPGTRLDLKR
B23: 2.3.7-1 (antibody, human IgG1, kappa, V domains shown)
VH: B22 VH with K28N, H32Y
VL: B22 VL with T18R, R61S, N68T, N72S, N73S
B24: 2.3.17-1 (antibody, human IgG1, kappa, V domains shown)
VH: B22 VH with K28N, H32Y
VL: B22 VL with N68H
B25: 2.3.15-1 (antibody, human IgG1, kappa, V domains shown)
VH: B22 VH with K28N, H32Y
VL: B22 VL with N68T
B26: 2.3.18-1 (antibody, human IgG1, kappa, V domains shown)
VH: B22 VH with K28N, H32Y
VL: B22 VL with T18R, R61S, N68H, N72S, N73S
B27: 2.2.12-1 (antibody, human IgG1, kappa, V domains shown)
VH: B22 VH
VL: B22 VL with N68I
B28: 2.2.17-1 (antibody, human IgG1, kappa, V domains shown)
VH: B22 VH
VL: B22 VL with N68H
B29: 2.2.7-1 (antibody, human IgG1, kappa, V domains shown)
VH: B22 VH
VL: B22 VL with T18R, R61S, N68T, N72S, N73S
B30: 2.2.18-1 (antibody, human IgG1, kappa, V domains shown)
VH: B22 VH
VL: B22 VL with T18R, R61S, N68H, N72S, N73S
B31: 2.2.15-1 (antibody, human IgG1, kappa, V domains shown)
VH: B22 VH
VL: B22 VL with N68T
B32: 2.3.13-1 (antibody, human IgG1, kappa, V domains shown)
VH: B22 VH with K28N, H32Y
VL: B22 VL with T18R, R61S, N68I, N72S, N73S
B33: 2.2.13-1 (antibody, human IgG1, kappa, V domains shown)
VH: B22 VH
VL: B22 VL with T18R, R61S, N68I, N72S, N73S
B34: 2.3.9-1 (antibody, human IgG1, kappa, V domains shown)
VH: B22 VH with K28N, H32Y
VL: B22 VL
B35: 2.3.12-1 (antibody, human IgG1, kappa, V domains shown)
VH: B22 VH with K28N, H32Y
VL: B22 VL with N68I

Assays:
Assay in all cases: cell-based or functional assay
[1] = target: HIV-1 envelope glycoprotein (gp120) of virus 92US712 (HIV-1)
[2] = target: HIV-1 envelope glycoprotein (gp120) of virus 7141 (HIV-1)
[3] = target: HIV-1 envelope glycoprotein (gp120) of virus VS001 (HIV-1)
[4] = target: HIV-1 envelope glycoprotein gp120 of viral isolate 92US657 (HIV-1)
[5] = target: HIV-1 envelope glycoprotein gp120 of viral isolate 92US712 (HIV-1)
[6] = target: HIV-1 envelope glycoprotein (gp120) of virus 92US727 (HIV-1)

Row | Binder | Neutralization IC50 [1] | Neutralization IC50 [2] | Neutralization IC50 [3] | Neutralization IC50 [6] | further results
1 | B1 | 0.05 µg/mL | 1.61 µg/mL | 0.1 µg/mL | – | –
2 | B2 | – | – | – | – | ADCC EC50 (µg/mL), NK Donor 1, 92US657-infected cells [4]: 0.54 µg/mL; ADCC EC50 (µg/mL), NK Donor 2, 92US657-infected cells [4]: 0.81 µg/mL; ADCC EC50 (µg/mL), NK Donor 3, 92US657-infected cells [4]: 1.13 µg/mL; ADCC Emax (%), NK Donor 1, 92US657-infected cells [4]: 59%; ADCC Emax (%), NK Donor 2, 92US657-infected cells [4]: 51%; ADCC Emax (%), NK Donor 3, 92US657-infected cells [4]: 56%; ADCC EC50 (µg/mL), NK Donor 1, 92US712-infected cells [5]: 0.18 µg/mL; ADCC EC50 (µg/mL), NK Donor 2, 92US712-infected cells [5]: 0.08 µg/mL; ADCC EC50 (µg/mL), NK Donor 3, 92US712-infected cells [5]: 0.2 µg/mL; ADCC Emax (%), NK Donor 1, 92US712-infected cells [5]: 76%; ADCC Emax (%), NK Donor 2, 92US712-infected cells [5]: 60%; ADCC Emax (%), NK Donor 3, 92US712-infected cells [5]: 60%
3 | B3 | 0.09 µg/mL | 15.3 µg/mL | 0.94 µg/mL | > 50 µg/mL | –
4 | B4 | 0.06 µg/mL | 2.26 µg/mL | 0.21 µg/mL | > 50 µg/mL | –
5 | B5 | 0.13 µg/mL | 2.65 µg/mL | 0.2 µg/mL | – | –
6 | B6 | 0.07 µg/mL | 1.6 µg/mL | 0.07 µg/mL | 3.38 µg/mL | –
7 | B7 | 0.1 µg/mL | 14.6 µg/mL | 0.88 µg/mL | > 50 µg/mL | –
8 | B8 | 0.08 µg/mL | 15.9 µg/mL | 1.23 µg/mL | > 50 µg/mL | –
9 | B9 | 0.05 µg/mL | 3.38 µg/mL | 0.78 µg/mL | > 50 µg/mL | –
10 | B10 | 0.11 µg/mL | 5.23 µg/mL | 0.21 µg/mL | 35.3 µg/mL | –
11 | B11 | 0.05 µg/mL | 2.34 µg/mL | 0.13 µg/mL | > 50 µg/mL | –
12 | B12 | 0.06 µg/mL | 4.83 µg/mL | 1.04 µg/mL | > 50 µg/mL | –
13 | B13 | 0.05 µg/mL | 3.52 µg/mL | 0.19 µg/mL | > 50 µg/mL | –
14 | B14 | 0.07 µg/mL | 1.64 µg/mL | 0.15 µg/mL | 1.72 µg/mL | –
15 | B15 | 0.07 µg/mL | 11.2 µg/mL | 0.83 µg/mL | > 50 µg/mL | –
16 | B16 | 0.05 µg/mL | 4.01 µg/mL | 1.25 µg/mL | > 50 µg/mL | –
17 | B17 | 0.04 µg/mL | 2.65 µg/mL | 0.4 µg/mL | > 50 µg/mL | –
18 | B18 | 0.04 µg/mL | 2.06 µg/mL | 0.44 µg/mL | > 50 µg/mL | –

Row | Binder | Neutralization IC50 [1] | Neutralization IC50 [2] | Neutralization IC50 [3] | Neutralization IC50 [6] | further results
19 | B19 | 0.09 µg/mL | 12 µg/mL | 0.48 µg/mL | > 50 µg/mL | –
20 | B20 | 0.05 µg/mL | 4.31 µg/mL | 0.79 µg/mL | > 50 µg/mL | –
21 | B21 | 0.09 µg/mL | 10.2 µg/mL | 0.72 µg/mL | > 50 µg/mL | –
22 | B22 | 0.06 µg/mL | – | – | – | –
23 | B23 | 0.07 µg/mL | – | – | – | –
24 | B24 | 0.08 µg/mL | – | – | – | –
25 | B25 | 0.1 µg/mL | – | – | – | –
26 | B26 | 0.16 µg/mL | – | – | – | –
27 | B27 | 0.04 µg/mL | – | – | – | –
28 | B28 | 0.05 µg/mL | – | – | – | –
29 | B29 | 0.04 µg/mL | – | – | – | –
30 | B30 | 0.09 µg/mL | – | – | – | –
31 | B31 | 0.03 µg/mL | – | – | – | –
32 | B32 | 0.14 µg/mL | – | – | – | –
33 | B33 | 0.08 µg/mL | – | – | – | –
34 | B34 | 0.09 µg/mL | – | – | – | –
35 | B35 | 0.09 µg/mL | – | – | – | –
